Compound potency records, mixed from different reports. Data source: NIAID ChemDB in PubChem.

All rows: whole-cell or culture tests; agent: Plasmodium falciparum

ECn: concentration that inhibits the pathogen or its effect by n%. Rows are shuffled and stem from different studies. Blank or dashed fields: not listed here. Inhibition is in % at the dose shown (toxicity tests: loss of growth or viability).

C=C[C@]1(C)C[C@H](OC(=O)C(=C)CO)[C@H]2C(=C)C(=C)C[C@@H]2C1C(=C)CO ; strain or isolate: Dd2 ; cells: Red blood cells ; method: SYBR Green ; read-out: EC50 ; value: 0.569 µg/mL
NCCC1=c2c(O)c3c(c(O)c2N=C1)=NC=CS3(=O)=O ; strain or isolate: Dd2 ; read-out: MIC ; value: 0.0066 µM
N#Cc1nc2c(-c3nc4ccccc4[nH]3)c(N)n(Cc3cccc(C(F)(F)F)c3)c2nc1C#N ; strain or isolate: NF54 ; cells: Erythrocytes ; method: hypoxanthine uptake / radiometric ; read-out: EC50 ; value: 0.18 µM
CC[C@H]1OC(=O)[C@H](C)[C@@H](OC2C[C@@](C)(OC)[C@@H](O)[C@H](C)O2)[C@H](C)[C@@H](OC2O[C@H](C)C[C@H](N(C)C)[C@H]2O)[C@](C)(OC2C[C@@H](N(C)C)[C@@H](O)[C@H](C)O2)C[C@@H](C)C(=O)[C@H](C)[C@@H](O)[C@]1(C)O ; strain or isolate: W2 Mef ; cells: RBC ; method: fluorescence ; conditions: 48 h ; read-out: EC50 ; value: 12.8 µM
CC(C)CCn1c(N)c(-c2nc3ccccc3[nH]2)c2nc(C#N)c(C#N)nc21 ; strain or isolate: NF54 ; cells: Erythrocytes ; method: hypoxanthine uptake / radiometric ; read-out: EC50 ; value: 0.25 µM
CCOC(=O)N/N=C(/OCC)C(C)(O)c1ccc(Cl)cc1 ; strain or isolate: 3D7 ; method: hypoxanthine uptake / radiometric ; read-out: inhibition ; tested at: 5 µM ; value: 75%
C=C[C@H]1CN2CC[C@H]1C[C@H]2[C@H](O)c1ccnc2ccc(OC)cc12 ; strain or isolate: W2 ; conditions: 48 h ; read-out: inhibition ; tested at: 0.016 µg/mL ; value: 73%
N#Cc1nc2c(-c3nc4ccccc4[nH]3)c(N)n(CCc3ccc(F)cc3)c2nc1C#N ; strain or isolate: NF54 ; cells: Erythrocytes ; method: hypoxanthine uptake / radiometric ; read-out: EC50 ; value: 0.32 µM
NCCCC[C@H](N)C(=O)N(O)C1C[C@@H](C(N)=O)N(C(=O)c2ccc(-c3cccc([N+](=O)[O-])c3)o2)C1 ; strain or isolate: 3D7 ; cells: Red blood cells ; method: flow cytometry ; conditions: 96 h ; read-out: EC50 ; value: 83.2 µM
Cc1ccc(CCn2c(N)c(-c3nc4ccccc4[nH]3)c3nc(C#N)c(C#N)nc32)cc1 ; strain or isolate: NF54 ; cells: Erythrocytes ; method: hypoxanthine uptake / radiometric ; read-out: EC50 ; value: 0.26 µM
CCOC(=O)N/N=C(/OCC)C(O)(CC)c1ccc(Cl)c(Cl)c1 ; strain or isolate: 3D7 ; method: hypoxanthine uptake / radiometric ; read-out: inhibition ; tested at: 5 µM ; value: 66%
COc1ccc(CCn2c(N)c(-c3nc4ccccc4n3C)c3nc(C#N)c(C#N)nc32)cc1 ; strain or isolate: NF54 ; cells: Erythrocytes ; method: hypoxanthine uptake / radiometric ; read-out: EC50 ; value: 4.8 µM
C=C1C[C@@H]2/C=C(\CO)CC/C=C(\C)C[C@H](OC(=O)C(=C)CO)[C@H]2C1=C ; strain or isolate: HB3 ; cells: Red blood cells ; method: SYBR Green ; read-out: EC50 ; value: 0.614 µg/mL
CC[C@H]1OC(=O)[C@H](C)[C@@H](OC2C[C@@](C)(OC)[C@@H](O)[C@H](C)O2)[C@H](C)[C@@H](OC2O[C@H](C)C[C@H](N(C)C)[C@H]2O)[C@](C)(O)C[C@@H](C)CN(C)[C@H](C)[C@@H](O)[C@]1(C)O ; strain or isolate: 3D7 ; cells: RBC ; method: fluorescence ; conditions: 120 h ; read-out: EC50 ; value: 0.06 µM
CCOC(=O)N/N=C(/OCc1ccccc1)C(C)(O)c1ccc2ccccc2c1 ; strain or isolate: 3D7 ; method: hypoxanthine uptake / radiometric ; read-out: inhibition ; tested at: 5 µM ; value: 0%
NCCSC[C@H](N)C(=O)N(O)C1C[C@@H](C(N)=O)N(C(=O)CCc2cn(-c3ccccc3)nc2-c2ccccc2)C1 ; strain or isolate: 3D7 ; cells: Red blood cells ; method: flow cytometry ; conditions: 48 h ; read-out: EC50 ; value: 48.1 µM
CCN(CC)CCCC(C)n1c(N)c(-c2nc3ccccc3s2)c2nc(C#N)c(C#N)nc21 ; strain or isolate: NF54 ; cells: Erythrocytes ; method: hypoxanthine uptake / radiometric ; read-out: EC50 ; value: 0.04 µM
CCC[C@H]1O[C@@H]2CC(=O)O[C@@H]2C2=C1C(=O)c1c(O)cccc1C2=O ; strain or isolate: HB3 ; method: SYBR Green ; read-out: inhibition ; tested at: 1.5 µM ; value: 90%

Repeating the first 2 entries:

compound | strain or isolate | cells | method | conditions | read-out | tested at | value
C=C[C@]1(C)C[C@H](OC(=O)C(=C)CO)[C@H]2C(=C)C(=C)C[C@@H]2C1C(=C)CO | Dd2 | Red blood cells | SYBR Green | - | EC50 | - | 0.569 µg/mL
NCCC1=c2c(O)c3c(c(O)c2N=C1)=NC=CS3(=O)=O | Dd2 | - | - | - | MIC | - | 0.0066 µM